Biological target: T1, TGF-beta receptor type-1 (Homo sapiens, UniProt P36897)
T1 sequence (P36897 whole entry): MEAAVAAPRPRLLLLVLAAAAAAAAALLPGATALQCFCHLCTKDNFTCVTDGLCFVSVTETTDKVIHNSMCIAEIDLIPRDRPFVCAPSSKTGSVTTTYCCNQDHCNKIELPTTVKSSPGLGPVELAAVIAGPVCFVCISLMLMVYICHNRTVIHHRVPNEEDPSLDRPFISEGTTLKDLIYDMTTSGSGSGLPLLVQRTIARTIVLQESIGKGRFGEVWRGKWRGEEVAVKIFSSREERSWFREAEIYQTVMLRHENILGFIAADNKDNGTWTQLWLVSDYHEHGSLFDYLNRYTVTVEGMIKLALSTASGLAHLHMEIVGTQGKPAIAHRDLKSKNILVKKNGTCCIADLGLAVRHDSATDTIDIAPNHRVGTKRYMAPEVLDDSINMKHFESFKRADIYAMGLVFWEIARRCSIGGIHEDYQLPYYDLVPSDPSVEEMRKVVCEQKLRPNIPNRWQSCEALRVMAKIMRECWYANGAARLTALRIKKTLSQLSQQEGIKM
Experiment: Binding affinity to wild type human partial length TGFBR1 (D179 to M503 residues) expressed in bacterial expression system by KINOMEscan assay

SMILES: Cc1cccc(-c2nc(Nc3ccc4nn(C)cc4c3)c3ccccc3n2)n1
- Kd: > 10 µM
